Measured values from several laboratories, pooled; numbers as filed in NIAID ChemDB.

Shared fields: toxicity to cultured cells; cells: MT-4; read-out: CC50

An empty or dashed field is not shown. Lines come from different laboratories, so protocols vary. CCn: concentration that lowers growth or viability of the cells by n%.

compound | read by | value
CC(C)c1c(Cc2ccccc2)n(COCc2ccccc2)c(=O)[nH]c1=O | XTT | 84.6 µM
O=C1CSC(=Nc2cccc(C(F)(F)F)c2)N1c1ccccc1F | MTT / absorbance | >100 µM
Cc1ccc(NC(=S)OCCN2C(=O)c3ccc(C(C)(C)C)cc3C2=O)cc1 | - | >100 µM
COc1ccc(CCNc2nc(NC(=O)Nc3cccc(Cl)c3)nc(Oc3cc(=O)oc4ccccc34)n2)cc1OC | MTT | 25.23 µg/mL
Cc1ccc(C(=O)N2c3ccccc3S(=O)(=O)n3cccc3C2CC(=O)O)cc1 | - | >326 µM
CCOC(=O)CNc1nc(NC(=O)Nc2ccccc2)nc(Oc2cc(=O)oc3ccccc23)n1 | MTT | >125 µg/mL
Cc1ccc(S(=O)(=O)NC(C)c2nnc(SCc3ccccc3)o2)cc1 | - | 59.58 µg/mL
COc1ccc(CCNc2nc(NC(=O)Nc3ccccc3)nc(Oc3cc(=O)oc4ccccc34)n2)cc1OC | MTT | 86.93 µg/mL
Cc1ccc(S(=O)(=O)N(Cc2ccc(Br)cc2)C(C)c2nnc(SCc3ccc(Br)cc3)o2)cc1 | - | >125 µg/mL
COc1ccc(NC(=S)Nc2nc(NCCc3ccc(OC)c(OC)c3)nc(Oc3cc(=O)oc4ccccc34)n2)cc1 | MTT | 56.45 µg/mL
CN(C)c1ccc(/C=C2\C(=O)N(CCc3cccs3)C(=S)N2CCc2cccs2)cc1 | MTT / turbidity | 34.3 µg/mL
CC1(CO)O[C@H](n2cnc3c(N)ncnc32)[C@@H](O)[C@H]1O | - | >100 µM
Cc1cn([C@@H]2O[C@@H]3CN[C@@]4(O)CS(=O)(=O)O[C@@]34[C@H]2O[Si](C)(C)C(C)(C)C)c(=O)[nH]c1=O | - | >250 µM
O=C(COCC1Nc2ccccc2S(=O)(=O)n2cccc21)c1ccc(Cl)cc1 | - | 240 µM
CC(c1nnc(SCc2ccc(Br)cc2)o1)N(Cc1ccc(Br)cc1)S(=O)(=O)c1ccc(Cl)cc1 | - | >125 µg/mL
S=c1[nH]c(-c2ccccc2)c(-c2ccccc2)n1Nc1cccc(Cl)c1 | - | 36.31 µM
C[C@]1(CO)O[C@@H](n2cnc3c(=O)[nH]c(N)nc32)[C@H](O)[C@@H]1O | - | >100 µM
C=C(CC[C@](C)(O)[C@H]1C(=O)C[C@H]2[C@@H]3[C@H](O)C[C@H]4CC(=O)CC[C@]4(C)[C@H]3CC[C@@]21C)C(C)C | MTT | 11.9 µM
CO[C@]12CS(=O)(=O)O[C@@]13[C@@H](CN2)O[C@@H](n1cc(C)c(=O)[nH]c1=O)[C@@H]3O | - | >250 µM
O=C1c2ccccc2C(=O)N1CCOC(=S)Nc1ccc(Cl)c(C(F)(F)F)c1 | - | >100 µM
O=[N+]([O-])CC1Nc2ccccc2S(=O)(=O)n2cccc21 | - | 14 µM
O=C1CSC(=Nc2cccc(C(F)(F)F)c2)N1Cc1ccccc1 | MTT / absorbance | 43 µM
COc1c(-c2cc(C)on2)c(O)c(S(=O)(=O)OC2CCCCC2)c2occc12 | MTT | 330 µM
CC(=O)N[C@H]1OC(CO[Si](C)(C)C(C)(C)C)C2(OS(=O)(=O)C=C2N)C1O[Si](C)(C)C(C)(C)C | - | 14.8 µM
CCOCn1c(Cc2c(F)ccc(F)c2F)c(CC)c(=O)[nH]c1=O | - | >100 µM
Cc1cc(C)cc(Nn2cnc(C)c2-c2ccccc2)c1 | - | 20.44 µM
COc1c(-c2cc(C)n(-c3ccccc3)n2)c(O)c(S(=O)(=O)OC2CCCC2)c2occc12 | MTT | 190 µM
COc1ccc(Nc2c([N+](=O)[O-])ncn2CC2=CC(=O)C(=O)CN2C)cc1 | MTT | >250 µM
O=C1CSC(=Nc2cccc(C(F)(F)F)c2)N1c1cccc(F)c1 | MTT / absorbance | >100 µM
C=CCOCn1c(Cc2cccc(C(F)(F)F)c2)c(C(C)C)c(=O)[nH]c1=O | - | 39 µM
COC(=O)c1c(C)[nH]c(=S)n1Nc1cccc(Cl)c1 | - | 190 µM
O=C1/C(=C\c2ccccc2)N(CCc2cccs2)C(=S)N1CCc1cccs1 | MTT | 59.38 µg/mL
C=C(C)C(=O)NC(=O)NC1OC(CO[Si](C)(C)C(C)(C)C)C2(OS(=O)(=O)C=C2N)C1O[Si](C)(C)C(C)(C)C | - | 2.85 µM
CN1CC(=O)C(=O)C=C1Cn1cnc([N+](=O)[O-])c1Sc1ccccc1 | MTT | 23.6 µM
CC(C)(C)c1ccc2c(c1)C(=O)N(CCOC(=S)Nc1ccc(Cl)cc1)C2=O | - | >100 µM
CCOC(=O)CNc1nc(Nc2ccc(OC)cc2)nc(Oc2cc(=O)oc3ccccc23)n1 | MTT | 58.6 µg/mL
N#Cc1ccc(Nc2nnnn2-c2cccc(C(F)(F)F)c2)cc1 | MTT / absorbance | 18 µM
CCOC(=O)C12CC(=O)N1c1ccccc1N(C)n1cccc12 | - | >369 µM
COc1c(-c2cc(C)n(-c3ccccc3)n2)c(O)c(S(=O)(=O)Oc2ccc(F)cc2)c2occc12 | MTT | 110 µM
Cc1cn([C@@H]2O[C@@H]3CN[C@@]4(C#N)CS(=O)(=O)O[C@@]34[C@H]2O)c(=O)[nH]c1=O | - | >250 µM
CN1CC(=O)C(=O)C=C1Cn1cnc([N+](=O)[O-])c1Sc1ccc(Cl)cc1 | MTT | 3.6 µM
Cc1ccc2c(c1)C(=O)N(CCOC(=S)Nc1ccc(Br)cc1)C2=O | - | >100 µM
COc1ccccc1NC(=O)Nc1nc(NCCc2ccc(OC)c(OC)c2)nc(Oc2cc(=O)oc3ccccc23)n1 | MTT | 25.48 µg/mL
CCOCn1c(Cc2ccccc2)c(C(C)C)c(=O)[nH]c1=O | - | >100 µM
COc1c(-c2cc(C)[nH]n2)c(O)c(S(=O)(=O)Oc2ccc([N+](=O)[O-])cc2)c2occc12 | MTT | 220 µM
C=CCC(C(=O)O)c1c(-c2ccccc2)c2cc(Cl)ccc2[nH]c1=O | - | 67.3 µM
CSCCC(NS(=O)(=O)c1ccc(Cl)cc1)c1nnc(SCc2ccc(Br)cc2)o1 | - | 12.3 µg/mL
CN1CC(=O)C(=O)C=C1Cn1cnc([N+](=O)[O-])c1Nc1ccc(Br)cc1 | MTT | 6.8 µM
Cc1ccc(S(=O)(=O)NC(C)c2nnc(SCc3ccc(Cl)cc3)o2)cc1 | - | 27.93 µg/mL
O=C1/C(=C\c2cccc(Oc3ccc(-c4ccccc4)cc3)c2)N(CCc2cccs2)C(=S)N1CCc1cccs1 | MTT / turbidity | 81.95 µg/mL
CO[C@]12CS(=O)(=O)O[C@@]13C(CN2)O[C@@H](n1cc(C)c(=O)[nH]c1=O)[C@@H]3O[Si](C)(C)C(C)(C)C | - | 63 µM
NC(=O)CC1Nc2ccccc2S(=O)(=O)n2cccc21 | - | 206 µM
Cc1ccnc2c1NC(=O)c1cccnc1N2C1CC1 | MTT | 4 µg/mL
CSCCC(NS(=O)(=O)c1ccc(C)cc1)c1nnc(SCc2ccc(F)cc2)o1 | - | ≥11.5 µg/mL
O=C(OCC1Nc2ccccc2S(=O)(=O)n2cccc21)c1ccc(Cl)cc1 | - | 186 µM
Cc1ncn(Nc2cccc(Cl)c2)c1-c1cccc(C#N)c1 | - | 36.79 µM
CCOC(=O)CNc1nc(NC(=O)Nc2ccccc2Cl)nc(Oc2cc(=O)oc3ccccc23)n1 | MTT | >78.8 µg/mL
Cc1[nH]c(=S)n(Nc2cccc(F)c2)c1-c1ccccc1 | - | 108 µM
COc1c2ccoc2c(S(=O)(=O)Oc2ccc(F)cc2)c2oc(C)cc(=O)c12 | MTT | 530 µM
C=C(CC[C@](C)(O)[C@H]1[C@@H](O)C[C@H]2[C@@H]3[C@H](O)C=C4C[C@@H](O)CC[C@]4(C)[C@H]3CC[C@@]21C)C(C)C | MTT | 11.35 µM
COc1c(-c2cc(C)n(-c3ccccc3)n2)c(O)c(S(=O)(=O)Oc2ccc([N+](=O)[O-])cc2)c2occc12 | MTT | 120 µM
C=CCOCn1c(Cc2cc(C(F)(F)F)cc(C(F)(F)F)c2)c(CC)c(=O)[nH]c1=O | - | >100 µM

A second listing of 5 rows from above:

COc1ccccc1NC(=O)Nc1nc(NCCc2ccc(OC)c(OC)c2)nc(Oc2cc(=O)oc3ccccc23)n1 ; read by: MTT ; value: 25.48 µg/mL
C=CCOCn1c(Cc2cc(C(F)(F)F)cc(C(F)(F)F)c2)c(CC)c(=O)[nH]c1=O ; value: >100 µM
C[C@]1(CO)O[C@@H](n2cnc3c(=O)[nH]c(N)nc32)[C@H](O)[C@@H]1O ; value: >100 µM
N#Cc1ccc(Nc2nnnn2-c2cccc(C(F)(F)F)c2)cc1 ; read by: MTT / absorbance ; value: 18 µM
CCOC(=O)CNc1nc(Nc2ccc(OC)cc2)nc(Oc2cc(=O)oc3ccccc23)n1 ; read by: MTT ; value: 58.6 µg/mL